Measured values from several laboratories, pooled; numbers as filed in NIAID ChemDB.

All rows: whole-cell or culture tests; species: HIV-1; measure: EC50

An empty or dashed field is not shown. ECn: concentration that inhibits the pathogen or its effect by n%. Neighbouring rows are from separate reports. a–b is a range or a potency band.

structure,strain or isolate,mutations,cell line,method,setting,result
CC(C)C1=C2[C@H]3CC[C@@H]4[C@@]5(C)CC[C@H](OC(=O)[C@H]6C[C@@H](C(=O)O)C6(C)C)C(C)(C)[C@@H]5CC[C@@]4(C)[C@]3(C)CC[C@@]2(CCNCc2ccc(N3CCCCC3)cc2)CC1=O,92HT599,,MT-2,p24 / ELISA,,<1 µM
CN(CC(=O)O)Cc1ccc2c(c1)C[C@H](CN=C(N)N)[C@H]2NC(=O)C(=O)Nc1ccc(Cl)c(F)c1,AD8,,Cf2Th-CD4/CCR5,luminescence,,15.3 µM
CC(=O)Oc1cccc(C(=O)N2CCN(C(=O)C(=O)c3c[nH]c4cccc(Cl)c34)CC2)c1,,,HeLa + HELA CD4+/CCR5,luciferase,,<10 µM
CC(C)C1=C2[C@H]3CC[C@@H]4[C@@]5(C)CC[C@H](OC(=O)[C@H]6C[C@@H](C(=O)O)C6(C)C)C(C)(C)[C@@H]5CC[C@@]4(C)[C@]3(C)CC[C@@]2([C@@H](O)CNC(=O)[C@@H]2CCCNC2)CC1=O,92HT599,,MT-2,p24 / ELISA,,<1 µM
O=C(C(=O)N1CCN(C(=O)c2cnccn2)CC1)c1c[nH]c2cccc(F)c12,,,HeLa + HELA CD4+/CCR5,luciferase,,<10 µM
CN(C)S(=O)(=O)/N=C(\c1ccccc1)N1CCN(C(=O)C(=O)c2c[nH]c3c(-n4ccnn4)ncc(F)c23)CC1,Luciferase reporter virus,,HeLa(CD4+) + HeLa,luciferase,,<0.5 µM
O=C(O)C(=O)/C=C(\O)c1cc(Cc2ccccc2)cn(Cc2ccccc2F)c1=O,,,MAGI,,,0.9 µM
COc1ccc(N(C)C(=O)[C@H](Cc2ccccc2)NC(=O)c2cc(C(=O)N[C@@H](Cc3ccccc3)C(=O)N(C)c3ccc(OC)cc3)cc(C(C)(C)C)c2)cc1,NL4-3,,MT-2,luciferase,,0.15 µM
CCN1c2ncc(CCOc3ccc(S(=O)(=O)NCC(=O)O)cc3C)cc2C(=O)N(C)c2cccnc21,IIIB,,C8166,p24,,>0.05 µM
CC(C)C1=C2[C@H]3CC[C@@H]4[C@@]5(C)CC[C@H](OC(=O)[C@H]6C[C@@H](C(=O)O)C6(C)C)C(C)(C)[C@@H]5CC[C@@]4(C)[C@]3(C)CC[C@@]2(CC(=O)NCC2(N)CNC2)CC1=O,92HT599,,MT-2,p24 / ELISA,,<1 µM
COc1ncc(OC)c2c(C(=O)C(=O)N3CCN(C(=NC#N)c4ccccc4)CC3)c[nH]c12,Luciferase reporter virus,,HeLa(CD4+) + HeLa,luciferase,,<0.5 µM
CC(C)C1=C2[C@H]3CC[C@@H]4[C@@]5(C)CC[C@H](OC(=O)[C@H]6C[C@@H](C(=O)O)C6(C)C)C(C)(C)[C@@H]5CC[C@@]4(C)[C@]3(C)CC[C@@]2([C@@H](O)CNCC(CN)NC(=O)c2ccc(Cl)cc2)CC1=O,92HT599,,MT-2,p24 / ELISA,,<1 µM
COc1cccc2c(C(=O)C(=O)N3CCN(C(=O)c4ccccc4)C[C@@H]3C)c[nH]c12,,,HeLa + HELA CD4+/CCR5,luciferase,,<10 µM
CCN1c2ncc(CCOc3ccc(-c4csc(N)n4)cc3C)cc2C(=O)N(C)c2cccnc21,,RT-K103N Y181C,C8166,p24,,<0.01 µM
O=C1Nc2ccc(Cl)cc2[C@@](C#CC2CC2)(C(F)(F)F)O1,p8.9,N348I,HEK293T,luciferase,,7.69 nM
O=C(O)C(O)c1ccccc1,IIIB,,U87 (CD4+ CXCR4+) + U87,p24,,<10 µg/mL
CN(C(=O)[C@H](Cc1cc(F)cc(F)c1)Nc1ccnc(N[C@@H](Cc2cc(F)cc(F)c2)C(=O)N(C)c2ccc3scnc3c2)n1)c1ccc2scnc2c1,NL4-3,,MT-2,luciferase,,2.86 µM
CC1CN(C(=O)c2ccccc2)C(C)CN1C(=O)C(=O)c1c[nH]c2cccc(F)c12,,,HeLa + HELA CD4+/CCR5,luciferase,,<10 µM
CCN1c2ncc(CCOc3ccc(-c4ccncc4)cc3C)cc2C(=O)N(C)c2cccnc21,IIIB,,C8166,p24,,<0.01 µM
C=CCNC(=O)N(CCC[C@H](NC(C)=O)C(=O)NCc1ccccc1)Cc1ccccc1,IIIB,,CEM-IW + CEM,cytopathic effect / XTT,,>100 µM
CN1c2ccccc2C2C1C=C(C#N)C(=O)N2c1ccc([N+](=O)[O-])cc1,83-2/B1-T20r,,HeLa,GFP / fluorescence,,0.03 µM
COc1cnc(-n2cnc(C)n2)c2[nH]cc(C(=O)C(=O)N3CCN(C(=NC#N)c4ccccc4)CC3)c12,Luciferase reporter virus,,HeLa(CD4+) + HeLa,luciferase,,<0.5 µM
Cc1ccc(F)c2c(C(=O)C(=O)N3CCN(C(=O)c4ccccc4)CC3)c[nH]c12,,,HeLa + HELA CD4+/CCR5,luciferase,,<10 µM
CC(C)C1=C2[C@H]3CC[C@@H]4[C@@]5(C)CC[C@H](OC(=O)[C@H]6C[C@@H](C(=O)O)C6(C)C)C(C)(C)[C@@H]5CC[C@@]4(C)[C@]3(C)CC[C@@]2(CCNC(=O)c2ccc(N3CCCCC3)cc2)CC1=O,92HT599,,MT-2,p24 / ELISA,,<1 µM
O=C(O)C(=O)/C=C(\O)c1cc(Cc2cccc(Cl)c2)cn(Cc2cccc(Cl)c2F)c1=O,,,MAGI,,,1.4 µM
C#CCN(N=O)C(=O)NCCCC[C@H](NC(C)=O)C(=O)NCc1ccccc1,IIIB,,CEM-IW + CEM,cytopathic effect / XTT,,>100 µM
CCN1c2ncc(CCOc3ccc(C(=O)Nc4cccn(CC(=O)O)c4=O)cc3C)cc2C(=O)N(C)c2cccnc21,,RT-K103N Y181C,C8166,p24,,>0.05 µM
N#CN=C(c1ccccc1)N1CCN(C(=O)C(=O)c2c[nH]c3c(F)ccc(F)c23)CC1,Luciferase reporter virus,,HeLa(CD4+) + HeLa,luciferase,,<0.5 µM
Cc1cc(F)ccc1Cc1cc(/C(O)=C/C(=O)C(=O)O)c(=O)n(Cc2ccccc2F)c1,,,MAGI,,,1.3 µM
CCCN=C(c1ccccc1)N1CCN(C(=O)C(=O)c2c[nH]c3ccccc23)CC1,Luciferase reporter virus,,HeLa(CD4+) + HeLa,luciferase,,>0.5 µM
CC(C)CN(C)Cc1ccc2c(c1)C[C@H](CN=C(N)N)[C@H]2NC(=O)C(=O)Nc1ccc(Cl)c(F)c1,JR-FL,,Cf2Th-CD4/CCR5,luminescence,,11 µM
CC1CC(C)CN(S(=O)(=O)c2ccccc2[N+](=O)[O-])C1,D-92UG046,,HeLa,GFP / fluorescence,,1.47 µM
Cc1nc(C)c(C(=O)NCC[C@@]23CC[C@]4(C)[C@H](CC[C@@H]5[C@@]6(C)CC[C@H](OC(=O)[C@H]7C[C@@H](C(=O)O)C7(C)C)C(C)(C)[C@@H]6CC[C@]54C)C2=C(C(C)C)C(=O)C3)s1,92HT599,,MT-2,p24 / ELISA,,<1 µM
N=C(c1ccccn1)N1CCN(C(=O)C(=O)c2c[nH]c3c(-n4ccnn4)ncc(F)c23)CC1,Luciferase reporter virus,,HeLa(CD4+) + HeLa,luciferase,,<0.5 µM
Cc1cc(S(N)(=O)=O)ccc1NC(=O)COc1ccccc1C(=O)c1cc(Cl)cc(C#N)c1,,RT-K103N,HeLa MAGI + HeLa,β-galactosidase,,~0.001 µM
Cc1cc(F)ccc1Cc1cc(/C(O)=C/C(=O)C(=O)O)c(=O)n(Cc2ccc(F)cc2)c1,,,MAGI,,,1 µM
COc1ccc(N(C)C(=O)[C@H](Cc2cc(F)cc(F)c2)NC(=O)Cn2c(=O)c3ccccc3c(=O)n2CC(=O)N[C@@H](Cc2cc(F)cc(F)c2)C(=O)N(C)c2ccc(OC)cc2)cc1,NL4-3,,MT-2,luciferase,,0.09 µM
CCN1c2ncc(CCOc3ccc(C(=O)Nc4cccnc4C)cc3C)cc2C(=O)N(C)c2cccnc21,IIIB,,C8166,p24,,<0.01 µM
C[C@@H]1CN(C(=O)c2ccccc2)CCN1C(=O)C(=O)c1c[nH]c2cc(Cl)c(Cl)cc12,,,HeLa + HELA CD4+/CCR5,luciferase,,<10 µM
C=CCNC(=O)N(CCCC[C@H](NC(C)=O)C(=O)NCc1ccccc1)Cc1ccccc1,IIIB,,CEM-IW + CEM,cytopathic effect / XTT,,>100 µM
CCN1c2ncc(CCOc3ccc(-c4ccc(C(=O)O)c[n+]4[O-])cc3C)cc2C(=O)N(C)c2cccnc21,,RT-K103N Y181C,C8166,p24,,0.01–0.05 µM
CC(C)C1=C2[C@H]3CC[C@@H]4[C@@]5(C)CC[C@H](OC(=O)[C@H]6C[C@@H](C(=O)O)C6(C)C)C(C)(C)[C@@H]5CC[C@@]4(C)[C@]3(C)CC[C@@]2(CC(=O)NCC(CN)NC(=O)c2ccc(Cl)cc2)CC1=O,92HT599,,MT-2,p24 / ELISA,,<1 µM
CC(C)NC(=O)/N=C(\c1ccccc1)N1CCN(C(=O)C(=O)c2c[nH]c3cccc(F)c23)CC1,Luciferase reporter virus,,HeLa(CD4+) + HeLa,luciferase,,>0.5 µM
COC[C@@H](c1ccc(C(F)(F)F)cc1)N1CCN(C2(C)CCN(C(=O)c3c(C)ncnc3C)CC2)C[C@@H]1C,R14/S,M518V F519L,PBMC,,,0.00082 µM
O=C(O)C(=O)/C=C(\O)c1cc(Cc2ccccc2F)cn(Cc2ccccc2F)c1=O,,,MAGI,,,0.7 µM
C=CCNC(=O)NCCCC[C@H](NC(C)=O)C(=O)NCc1ccccc1,IIIB,,CEM-IW + CEM,cytopathic effect / XTT,,>100 µM
Cc1nc2ccc(CNCC[C@@]34CC[C@]5(C)[C@H](CC[C@@H]6[C@@]7(C)CC[C@H](OC(=O)[C@H]8C[C@@H](C(=O)O)C8(C)C)C(C)(C)[C@@H]7CC[C@]65C)C3=C(C(C)C)C(=O)C4)cc2[nH]1,92HT599,,MT-2,p24 / ELISA,,<1 µM
Nc1c(C(=O)NCc2ccc(F)cc2F)c(=O)n(O)c2ncc(CCCCCO)cc12,,R263K,HOS,luciferase / single cycle,pseudotyped,2.6 µM
CN(C)S(=O)(=O)/N=C(\c1ccccc1)N1CCN(C(=O)C(=O)c2c[nH]c3ccccc23)CC1,Luciferase reporter virus,,HeLa(CD4+) + HeLa,luciferase,,<0.5 µM
COc1cc(-c2ccc(N=Nc3ccc4c(S(=O)(=O)O)cc(S(=O)(=O)O)c(N)c4c3O)c(OC)c2)ccc1N=Nc1ccc2c(S(=O)(=O)O)cc(S(=O)(=O)O)c(N)c2c1O,McK,,CEM + CEM-SS,RT activity,,0.6 µM
COc1ccc(N(C)C(=O)[C@H](Cc2ccccc2)NC(=O)C[C@H](O)C(=O)N[C@@H](Cc2ccccc2)C(=O)N(C)c2ccc(OC)cc2)cc1,NL4-3,,MT-2,luciferase,,3.29 µM
O=C(C(=O)N1CCN(C(=O)c2ccccn2)CC1)c1c[nH]c2cccc(F)c12,,,HeLa + HELA CD4+/CCR5,luciferase,,<10 µM
CCCCCCNP(=O)(OC[C@H]1O[C@@H](n2cc(C)c(=O)[nH]c2=O)C[C@@H]1N=[N+]=[N-])Oc1ccccc1,IIIB,,CEM + CEM/O,,,>8 µM
CC(=O)N[C@@H](CCCNC(=O)NCCCl)C(=O)NCc1ccccc1,IIIB,,CEM-IW + CEM,cytopathic effect / XTT,,>100 µM
CC(C)C1=C2[C@H]3CC[C@@H]4[C@@]5(C)CC[C@H](OC(=O)[C@H]6C[C@@H](C(=O)O)C6(C)C)C(C)(C)[C@@H]5CC[C@@]4(C)[C@]3(C)CC[C@@]2([C@@H](O)CNCc2ccc(CN3CCC(O)CC3)cc2)CC1=O,92HT599,,MT-2,p24 / ELISA,,<1 µM
CCN(C(=O)[C@H](Cc1cc(F)cc(F)c1)NC(=O)CN1c2ccccc2N(CC(=O)N[C@@H](Cc2cc(F)cc(F)c2)C(=O)N(CC)c2ccc(NC(=O)OC)cc2)S1(=O)=O)c1ccc(NC(=O)OC)cc1,NL4-3,,MT-2,luciferase,,0.72 µM
CCCCN=C(c1ccccc1)N1CCN(C(=O)C(=O)c2c[nH]c3c(-n4ccnn4)ncc(F)c23)CC1,Luciferase reporter virus,,HeLa(CD4+) + HeLa,luciferase,,<0.5 µM